The structures appear in SMILES notation.

In this series the test system is antibiotic binding protein (PBP). The experiment in a line: Lateral flow test strip for detection of β-lactams in milk (sequential assay). As to conditions: milk sample 0.1 mL; 5 min then 10 min incubation at 64° C.; capture line vs reference line read visually. Further details: species or system Bacillus stearothermophilus.
In the case of `CC1(C)S[C@@H]2[C@H](NC(=O)[C@H](N)c3ccc(O)cc3)C(=O)N2[C@H]1C(=O)O` [Amoxicillin, amoxicillin], the Sensitivity was determined as 4 ppb.

For the compound `CC1(C)S[C@@H]2[C@H](NC(=O)[C@H](N)c3ccccc3)C(=O)N2[C@H]1C(=O)O` [Ampicillin, ampicillin], the Sensitivity is recorded as 4 ppb.

Compound `CO/N=C(\C(=O)N[C@@H]1C(=O)N2C(C(=O)O)=C(CSC(=O)c3ccco3)CS[C@H]12)c1csc(N)n1` [Ceftiofur, ceftiofur] returned a Sensitivity of 4 ppb.

Turning to `Cc1onc(-c2ccccc2Cl)c1C(=O)N[C@@H]1C(=O)N2[C@@H]1SC(C)(C)[C@@H]2C(=O)O` [Cloxacillin, cloxacillin], the Sensitivity was 60 ppb.

Compound `CC1(C)S[C@@H]2[C@H](NC(=O)Cc3ccccc3)C(=O)N2[C@H]1C(=O)O` [Penicillin G, penicillin G] displayed a Sensitivity of 4 ppb.

Source of the values: patent publication US20080227220A1, “Lateral Flow Binding Assay” (priority 2004, published 2008).
